Source: patent publication US20190071489A1

Molecular target: EBOV GP (Mayinga variant) (Ebola virus (EBOV), Mayinga variant) (UniProt Q05320)
Test: cell-based or functional assay

Substance	IC50 (µg/mL), neutralization of EBOV GP-pseudotyped lentivirus on HEK293T	IC90 (µg/mL), neutralization of EBOV GP-pseudotyped lentivirus on HEK293T	IC99 (µg/mL), neutralization of EBOV GP-pseudotyped lentivirus on HEK293T
EVB114 (antibody)	0.09 µg/mL	0.71 µg/mL	7.19 µg/mL
KZ52 (antibody)	0.06 µg/mL	17.2 µg/mL	> 1000 µg/mL
